{"sequences": {"note": "The chains behind the UniProt entries cited, without tags or fusion partners.", "UniProt P0A725, whole entry": "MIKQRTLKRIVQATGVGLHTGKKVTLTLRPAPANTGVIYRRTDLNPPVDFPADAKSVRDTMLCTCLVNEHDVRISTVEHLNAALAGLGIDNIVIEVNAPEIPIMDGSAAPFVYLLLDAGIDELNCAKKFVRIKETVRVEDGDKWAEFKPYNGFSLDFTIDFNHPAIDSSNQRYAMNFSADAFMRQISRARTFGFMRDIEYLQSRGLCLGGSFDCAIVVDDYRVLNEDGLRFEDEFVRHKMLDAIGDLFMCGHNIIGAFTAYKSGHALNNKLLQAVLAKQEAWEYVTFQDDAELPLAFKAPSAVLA"}, "source": "patent US20220002279A1", "about": "“NOVEL IMIDAZOLE DERIVATIVE” (priority 2018, published 2022)", "key": {"[1]": {"molecular_target": "Escherichia coli LpxC enzyme (Escherichia coli, UniProt P0A725)", "experiment": "Inhibitory activity on Escherichia coli LpxC enzyme (fluorescamine method)", "details": "read-out: IC50 (inhibitory activity on Escherichia coli LpxC enzyme, Fluoresamine method); fluorescamine detection; 3.1 nmol/L enzyme, 20 μmol/L substrate, pH 6.5, 120 min"}, "[2]": {"tested_on": "Escherichia coli strain ATCC25922", "experiment": "Antimicrobial activity, MIC by broth microdilution", "details": "cation-adjusted Mueller-Hinton broth, about 5×10^5 CFU/mL, 35° C., about 18 hours", "source_text": "(§1) Test Example 4 Evaluation of the Antimicrobial Activity\n(§2) For minimum inhibitory concentration (MIC) measurement, the following broth microdilution method was applied as adapted from the standard procedure recommended by the CLSI (Clinical and Laboratory Standards Institute).\n(§3) The bacteria used were Pseudomonas aeruginosa strain ATCC27853, Escherichia coli strain ATCC25922, and Klebsiella pneumoniae strain ATCC13883. After culture overnight on a heart infusion agar medium, the cells of a test bacterium were scraped off, and a bacterial solution suspended to have a turbidity of level 0.5 on the McFarland scale was diluted and used as an inoculum solution. The inoculum solution was inoculated in a cation-adjusted Mueller-Hinton broth medium containing a test compound so that the final inoculation concentration was about 5×10^5 CFU/mL, and cultured at 35° C. for about 18 hours. A minimum drug concentration at which no cell growth was visible to the naked eye was designated as MIC. […] In the table, ND represents the case where suppression of the cell growth in a drug concentration-dependent manner was not observed (Not Determined), and NT represents that no test was conducted (Not Tested)."}, "[3]": {"tested_on": "Klebsiella pneumoniae strain ATCC13883", "experiment": "Antimicrobial activity, MIC by broth microdilution", "details": "cation-adjusted Mueller-Hinton broth, about 5×10^5 CFU/mL, 35° C., about 18 hours", "source_text": "as §1, §2, §3"}, "[4]": {"tested_on": "Pseudomonas aeruginosa strain ATCC27853", "experiment": "Antimicrobial activity, MIC by broth microdilution", "details": "cation-adjusted Mueller-Hinton broth, about 5×10^5 CFU/mL, 35° C., about 18 hours", "source_text": "as §1, §2, §3"}}, "data": [{"compound": "C[C@H](O)c1nccn1Cc1cc(-c2ccc(C#CC3(NC=O)CC3)cc2)on1", "values": [{"measurement": "IC50", "setting": "[1]", "result": 685, "unit": "nM"}, {"measurement": "MIC Escherichia coli ATCC25922", "setting": "[2]", "result": 8, "unit": "µg/mL"}, {"measurement": "MIC Klebsiella pneumoniae ATCC13883", "setting": "[3]", "result": 16, "unit": "µg/mL"}, {"measurement": "MIC Pseudomonas aeruginosa ATCC27853", "setting": "[4]", "result": ">128", "unit": "µg/mL"}]}]}
